# Reference: patent US20100113430A1, “THIOXANTHENE DERIVATES USEFUL TO TREAT INFECTIOUS DISEASES” (BKG PHARMA APS, priority 2007, published 2010)
# Test system: clinically relevant resistant bacterial isolate S. Aureus
# Experiment: Growth inhibition by cis/trans combinations, resistant isolate S. Aureus
# Format: cell-based
# Conditions: Trans-compound 0.5 μg/ml, Cis-compound 0 μg/ml; MIC(trans alone)/MIC(trans in trans-cis mixture) × 100
# Protocol: Cell growth was tested using the Minimal Inhibitory Concentration (MIC) susceptibility tests by use of the microdilution broth method in accordance to the NCCLS Guidelines (NCCLS Guidelines, Methods for Dilution Antimicrobial Susceptibility Tests for Bacteria That Grow Aerobically; Approved Standard, Sixth Edition, Volume 23; Number 2). The minimum inhibitory concentration (MIC), is defined ad the lowest concentration of drug which inhibits growth of the test organism, in the sense that no visible growth is detected (total inhibition of growth). In example 2 MIC of the compounds used on fungal microorganisms was determined from the IC90 measurements according to NCCLS Guidelines.
# A log phase culture of bacteria was diluted with fresh pre-warmed Mueller-Hinton medium and adjusted to a defined OD at 600 nm in order to give a final concentration of 1×10^4-5 bacteria/ml medium. The bacterial culture was transferred to microtiter-plates and culture was added to each well. Drug was added to the bacterial culture in the wells as two-fold dilution series of drug in order to give final concentrations ranging from 0.03 to 128 μg/ml. Trays were incubated at 37° C. by shaking in a robot analyzer, PowerWavex, software KC^4′ Kebo.Lab, Copenhagen, for 16 h and optical densities were measured at 600 nm during the incubation time in order to record growth curves. […]
smiles,measurement,value
"Clc1ccc2c(c1)/C(=C/CCN1CCNCC1)c1ccccc1S2 [N-dealkyl-trans-clopenthixol, trans-1-(3-(2-chloro-thioxanthen-9-ylidene)propyl)piperazine]",Effect index (trans-compound),100
